# Patent US11903936B2, “Anti-malarial agents” (THE BOARD OF REGENTS OF THE UNIVERSITY OF TEXAS SYSTEM, priority 2019, dated 2024)
# The source holds more than one record for some entries. This is not the full list of results. There may be further records. Values that stand side by side differ for a reason that is not stated; some may be repeats, others may stem from another dose, organism or construct than stated.
# Assay: metabolic stability, Human Clint
compound,measurement,value
"Cc1c(C2(c3ccc(C(F)(F)F)nc3)CC2)c[nH]c1C(=O)NC(C)c1cc(C(N)=O)[nH]n1 (single isomer, unassigned)",Human Clint,particularly metabolically stable and <7 μL/min/mg protein
